Results of unrelated studies side by side (data: NIAID ChemDB).

Shared fields: tests in culture; species: Candida albicans

Blank or dashed fields: not listed here. ECn is the concentration giving n% inhibition of infection, replication or growth. Rows are shuffled and stem from different studies. MIC50, MIC90 and the like: level of inhibition, or share of isolates inhibited.

{"structure": "CC(C)=CCC/C(C)=C/CN(C)C(=N)N(C)C/C=C(\\C)CCC=C(C)C", "strain or isolate": "ATCC 90028", "read-out": "MIC", "result": "250 µg/mL"}
{"structure": "COc1ccccc1C1SCC(=O)N1C(CC(C)C)C(=O)O", "read by": "broth dilution", "read-out": "EC50", "result": "80.38 µM"}
{"structure": "Cc1cnc(Nc2ccccc2Cl)nc1Nc1ccccc1Cl", "read-out": "EC50", "result": "2.6 µg/mL"}
{"structure": "CC(C)CC(C(=O)O)N1C(=O)CSC1c1ccccc1", "read by": "broth dilution", "read-out": "EC50", "result": "81.3 µM"}
{"structure": "CCOc1ccc(N2COc3c(ccc4ccccc34)C2)cc1", "strain or isolate": "MTCC 277", "read-out": "MIC", "result": "10 µg/mL"}
{"structure": "CC(C)(C)n1ncc(C#N)c1/N=c1\\ssnc1Cl", "strain or isolate": "ATCC 10231", "read-out": "MIC", "result": "25 µg/mL"}
{"structure": "COc1ccc(-c2nc3ccccc3c(=O)n2-c2ccc(NS(=O)(=O)C3C(=O)ONN3c3ccc(C)cc3)cc2)cc1", "read by": "broth dilution", "strain or isolate": "MTCC 227", "read-out": "MIC", "result": "500 µg/mL"}
{"structure": "CCCCCCCCCCn1cc[n+](C)c1", "read-out": "MIC", "result": "250 µg/mL"}
{"structure": "CC(C)CC(C(=O)O)N1C(=O)C(C)SC1c1ccccc1", "read by": "broth dilution", "read-out": "EC50", "result": "78.16 µM"}
{"structure": "COc1cc(OC)c2c(O)c3c(c(-c4ccc5cc6c(c(O)c5c4O)C(=O)CC(C)(O)C6)c2c1)CC(C)OC3C", "read-out": "MIC", "result": "16 µg/mL"}
{"structure": "Cc1ccc(N2NOC(=O)C2S(=O)(=O)Nc2ccc(-n3c(-c4cccc(Br)c4)nc4ccccc4c3=O)cc2)cc1", "read by": "broth dilution", "strain or isolate": "MTCC 227", "read-out": "MIC", "result": "500 µg/mL"}
{"structure": "CCCCCOc1ccc(-c2ccc(-c3ccc(C(=O)N[C@H]4CCCNC(=O)[C@@H]5C[C@H](NC(=O)C[N+](C)(C)C)CN5C(=O)[C@H]([C@@H](C)O)NC(=O)[C@H](CCc5ccc(O)cc5)NC(=O)[C@@H]5C[C@@H](O)CN5C(=O)[C@H]([C@@H](C)O)NC4=O)cc3)cc2)cc1", "strain or isolate": "ATCC 10231", "read-out": "MIC", "result": "1.56 µg/mL"}
{"structure": "Cc1ccc(-c2csc(NS(=O)(=O)C3C(=O)ONN3c3ccc(C)cc3)n2)cc1", "read by": "broth dilution", "strain or isolate": "MTCC 227", "read-out": "MIC", "result": "1000 µg/mL"}
{"structure": "CC1(O)CC(=O)c2c(cc3ccc(-c4ccc5cc6c(c(O)c5c4O)C(=O)CC(C)(O)C6)c(O)c3c2O)C1", "read-out": "MIC", "result": "16 µg/mL"}
{"structure": "CCCCCOc1ccc(-c2ccc(-c3ccc(C(=O)N[C@H]4CCCNC(=O)[C@@H]5C[C@H](N)CN5C(=O)[C@H](CCCN=C(N)N)NC(=O)[C@H](CCc5ccc(O)cc5)NC(=O)[C@@H]5C[C@@H](O)CN5C(=O)[C@H]([C@@H](C)O)NC4=O)cc3)cc2)cc1", "strain or isolate": "ATCC 38247", "read-out": "MIC", "result": "0.78 µg/mL"}
{"structure": "COc1ccc(-c2nc3ccccc3c(=O)n2-c2ccc(NS(=O)(=O)C3C(=O)ONN3c3ccc(C)cc3)cc2)cc1[N+](=O)[O-]", "read by": "broth dilution", "strain or isolate": "MTCC 227", "read-out": "MIC", "result": "250 µg/mL"}
{"structure": "Cn1ncc(C#N)c1/N=c1\\ssnc1Cl", "strain or isolate": "ATCC 10231", "read-out": "MIC", "result": "50 µg/mL"}
{"structure": "Cc1cnc(Nc2cccc(Cl)c2)nc1Nc1cccc(Cl)c1", "read-out": "EC50", "result": "1.06 µg/mL"}
{"structure": "CC(O)CN=c1ssc2ccccc12", "read-out": "MIC", "result": "15 µg/mL"}
{"structure": "CCCCCOc1ccc(-c2ccc(-c3ccc(C(=O)N[C@H]4CCCNC(=O)[C@@H]5C[C@H](NCc6ccccc6)CN5C(=O)[C@H]([C@@H](C)O)NC(=O)[C@H](CCc5ccc(O)cc5)NC(=O)[C@@H]5C[C@@H](O)CN5C(=O)[C@H]([C@@H](C)O)NC4=O)cc3)cc2)cc1", "strain or isolate": "ATCC 38247", "read-out": "MIC", "result": "6.25 µg/mL"}
{"structure": "Cc1ccc(Nc2ncc(C)c(Nc3ccc(C)cc3)n2)cc1", "read-out": "EC50", "result": "4.3 µg/mL"}
{"structure": "CC1SC(c2ccccn2)N(C(C)C(=O)O)C1=O", "read by": "broth dilution", "read-out": "EC50", "result": "81.27 µM"}
{"structure": "Brc1cc(Br)c(N2COc3c(ccc4ccccc34)C2)c(Br)c1", "strain or isolate": "MTCC 277", "read-out": "MIC", "result": "15 µg/mL"}
{"structure": "N#Cc1ncn(CCc2ccccc2)c1/N=c1\\ssnc1Cl", "strain or isolate": "ATCC 10231", "read-out": "MIC", "result": "25 µg/mL"}
{"structure": "CCCCCCCCCCCCCC[n+]1c(C(C)O)c[nH]c1C", "read-out": "MIC", "result": "125 µg/mL"}
{"structure": "CCC(C)n1ncn(-c2ccc(N3CCN(c4ccc(OC[C@H]5CO[C@](Cn6cncn6)(c6ccc(Cl)cc6Cl)O5)cc4)CC3)cc2)c1=O", "strain or isolate": "MTCC 227", "read-out": "MIC99", "result": "100 µg/mL"}
{"structure": "COc1ccccc1C1SCCC(=O)N1C(Cc1ccccc1)C(=O)O", "read by": "broth dilution", "read-out": "EC50", "result": "78.12 µM"}
{"structure": "OCCn1sc2ccccc2c1=S", "read-out": "MIC", "result": "5 µg/mL"}
{"structure": "CC(C)=CCN=C(NCC=C(C)C)NCC=C(C)C", "strain or isolate": "ATCC 90028", "read-out": "MIC", "result": "250 µg/mL"}
{"structure": "O=c1c2ccccc2sn1CCCO", "read-out": "MIC", "result": "10 µg/mL"}
{"structure": "CC(C(=O)O)N1C(=O)CSC1c1ccc(Cl)cc1", "read by": "broth dilution", "read-out": "EC50", "result": "79.61 µM"}
{"structure": "CCC[C@H](O)C[C@@H]1CC[C@H](C)CCCCC(=O)N(C)[C@@H](Cc2ccc(OCCO)cc2)C(=O)O1", "strain or isolate": "TIMM1768", "read-out": "MIC", "result": "8 µg/mL"}
{"structure": "CCCCCOc1ccc(-c2ccc(-c3ccc(C(=O)N[C@H]4CCCNC(=O)[C@@H]5C[C@H](N)CN5C(=O)[C@H](CC)NC(=O)[C@H](CCc5ccc(O)cc5)NC(=O)[C@@H]5C[C@@H](O)CN5C(=O)[C@H]([C@@H](C)O)NC4=O)cc3)cc2)cc1", "strain or isolate": "ATCC 10231", "read-out": "MIC", "result": "0.1 µg/mL"}
{"structure": "CCOc1ccc2nc(NS(=O)(=O)C3C(=O)ONN3c3ccc(C)cc3)sc2c1", "read by": "broth dilution", "strain or isolate": "MTCC 227", "read-out": "MIC", "result": "1000 µg/mL"}
{"structure": "CN1CCc2c(sc(/N=c3\\ssnc3Cl)c2C#N)C1", "strain or isolate": "ATCC 10231", "read-out": "MIC", "result": "100 µg/mL"}
{"structure": "COc1ccc(Nc2ncc(C)c(Nc3ccc(OC)cc3)n2)cc1", "read-out": "EC50", "result": "9.6 µg/mL"}
{"structure": "Cc1ccccc1Cn1nnc(C#N)c1/N=c1\\ssnc1Cl", "strain or isolate": "ATCC 10231", "read-out": "MIC", "result": "50 µg/mL"}
{"structure": "NC(=NC1CCCC1)c1ccc(-c2ccc(-c3ccc(C(N)=NC4CCCC4)cc3)o2)cc1", "strain or isolate": "Isolate CA1247", "read-out": "MIC", "result": "25 µg/mL"}
{"structure": "CC(CO)(CO)n1sc2ccccc2c1=O", "read-out": "MIC", "result": "5 µg/mL"}
{"structure": "Cc1ccc(N2NOC(=O)C2S(=O)(=O)Nc2nc3ccc(Br)cc3s2)cc1", "read by": "broth dilution", "strain or isolate": "MTCC 227", "read-out": "MIC", "result": ">1000 µg/mL"}
{"structure": "c1ccc(N2COc3c(ccc4ccccc34)C2)cc1", "strain or isolate": "MTCC 277", "read-out": "MIC", "result": "25 µg/mL"}
{"structure": "CC(CO)(CO)N=c1ssc2ccccc12", "read-out": "MIC", "result": "20 µg/mL"}

The last 4 rows once more:

structure,read by,strain or isolate,read-out,result
CC(CO)(CO)n1sc2ccccc2c1=O,,,MIC,5 µg/mL
Cc1ccc(N2NOC(=O)C2S(=O)(=O)Nc2nc3ccc(Br)cc3s2)cc1,broth dilution,MTCC 227,MIC,>1000 µg/mL
c1ccc(N2COc3c(ccc4ccccc34)C2)cc1,,MTCC 277,MIC,25 µg/mL
CC(CO)(CO)N=c1ssc2ccccc12,,,MIC,20 µg/mL